Compound potency records, mixed from different reports. Data source: NIAID ChemDB in PubChem.

Shared fields: whole-cell or culture tests; organism: HIV-1; cell line: CEM; read-out: EC50

Neighbouring rows are from separate reports.

CCc1cc(NCc2nc3c(Cl)ccc(Cl)c3o2)c(=O)[nH]c1C ; strain: IIIB-Pyridinone(0.1)(RT-V179N ; changes: RT-V179N ; read by: syncytia ; result: 0.2 µg/mL
OB(O)c1ccccc1CN1CCSCC1 ; strain: IIIB ; read by: syncytia ; result: >50 µM
N#CCN1C(=O)N(Cc2ccccc2)S(=O)(=O)c2cscc21 ; changes: RT-Y181C ; read by: syncytia ; result: >300 µM
CC(C)Nc1cccnc1N1CCN(C(=O)c2cc3ccccc3[nH]2)CC1 ; strain: IIIB ; changes: RT-Y181C ; read by: syncytia ; result: 1 µM
Cc1ccnc2c1NC(=O)c1cccnc1N2C1CC1 ; strain: IIIB ; changes: RT-Y188H ; read by: syncytia ; result: >37 µM
C=C(C)OC(=O)N1c2cc(Cl)ccc2NC(=S)C1(C)C ; strain: IIIB ; changes: RT-M184V ; read by: p24 ; result: 0.003 µg/mL
O=C1Nc2cscc2S(=O)(=O)N1Cc1ccccc1 ; strain: IIIB ; read by: syncytia ; result: >67.9 µM
CCn1c(=O)c(C)cn([C@@H]2O[C@H](CO[Si](C)(C)C(C)(C)C)C3(OS(=O)(=O)C=C3N)[C@H]2O[Si](C)(C)C(C)(C)C)c1=O ; strain: IIIB PYR(RT-Y181C) ; changes: RT-Y181C ; read by: syncytia ; result: >50 µg/mL
Fc1cccc(Cl)c1C1OCc2nc3ccccc3n21 ; strain: Nevirapine-resistant (RT V106A) ; changes: RT-V106A ; read by: cytopathic effect / MTT ; result: >14.69 µM
CCc1cc(NCc2nc3c(Cl)ccc(Cl)c3o2)c(=O)[nH]c1C ; strain: IIIB HEPT-resistant (RT Y188H) ; changes: RT-Y188H ; read by: syncytia ; result: 1.5 µg/mL
CC(C)Nc1cccnc1N1CCN(C(=O)c2cc3ccccc3[nH]2)CC1 ; strain: TIBO-2(RT-K103N) ; changes: RT-K103N ; read by: syncytia ; result: 3.7 µM
CCn1c(=O)c(C)cn([C@@H]2O[C@H](CO[Si](C)(C)C(C)(C)C)C3(OS(=O)(=O)C=C3N)[C@H]2O[Si](C)(C)C(C)(C)C)c1=O ; strain: IIIB ; read by: syncytia ; result: 0.03 µM
C=C(C)OC(=O)N1c2cc(Cl)ccc2NC(=S)C1(C)C ; strain: TIBO-1(RT-L100I) ; changes: RT-L100I ; read by: syncytia ; result: 0.053 µM
CC(C)=CCN1Cc2cc(Cl)cc3[nH]c(=S)n(c23)C[C@@H]1C ; strain: IIIB ; changes: RT-Y181C ; read by: syncytia ; result: 4.7 µM
Cc1cn([C@@H]2O[C@H](CO[Si](C)(C)C(C)(C)C)C3(OS(=O)(=O)C=C3N)[C@H]2O[Si](C)(C)C(C)(C)C)c(=O)n(C)c1=O ; strain: IIIB ; changes: RT-L100I ; read by: syncytia ; result: 0.07 ± 0.017 µM
CCN1C(=O)N(Cc2ccc(OC)cc2OC)S(=O)(=O)c2cscc21 ; strain: IIIB ; read by: syncytia ; result: >261.5 µM
CC(C)=CCOc1cc(NC(=S)c2ccsc2C)ccc1Cl ; strain: IIIB ; changes: RT-V106A ; read by: cytopathic effect ; result: 0.005 µg/mL
Cc1occc1C(=S)Nc1ccc(Cl)c(/C=N/OC(C)(C)C)c1 ; strain: IIIB ; changes: RT-L100I ; read by: p24 ; result: 0.085 µg/mL
CC(C)=CCOc1cc(NC(=S)c2ccoc2C)ccc1Cl ; strain: C-1 (RT-K101E) ; changes: RT-K101E ; read by: cytopathic effect ; result: 0.0073 µg/mL
C[C@H](Cn1cnc2c(N)nc(N)nc21)OCP(=O)(O)O ; strain: IIIB ; read by: syncytia ; result: 0.76 µM
Cc1cn([C@@H]2O[C@H](CO[Si](C)(C)C(C)(C)C)C3(OS(=O)(=O)C=C3N)[C@H]2O[Si](C)(C)C(C)(C)C)c(=O)n(C)c1=O ; strain: IIIB ; changes: RT-Y181C ; read by: cytopathic effect / XTT ; result: 3.2 µM
Cc1ccnc2c1NC(=O)c1cccnc1N2C1CC1 ; strain: IIIB HEPT-resistant (RT Y188H) ; changes: RT-Y188H ; read by: syncytia ; result: 5 µg/mL
CN1C(=O)N(Cc2ccccc2)S(=O)(=O)c2cscc21 ; changes: RT-Y181C ; read by: syncytia ; result: >324 µM
CCOCn1c(Cc2cc(C)cc(C)c2)c(CC)c(=O)[nH]c1=O ; strain: IIIB HEPT-resistant (RT Y188H) ; changes: RT-Y188H ; read by: syncytia ; result: 0.65 µg/mL
CCc1cc(NCc2nc3c(Cl)ccc(Cl)c3o2)c(=O)[nH]c1C ; strain: IIIB ; changes: RT-E138K ; read by: syncytia ; result: 0.86 µM
O=C1N(Cc2ccccc2)c2cscc2S(=O)(=O)N1Cc1ccccc1 ; strain: IIIB ; changes: RT-L100I ; read by: syncytia ; result: ≥10 µM
Fc1cccc(F)c1C1SCc2nc3ccccc3n21 ; strain: IIIB ; changes: RT-K103N ; read by: cytopathic effect / XTT ; result: 15.6 µM
CCN1C(=O)N(Cc2ccccc2)S(=O)(=O)c2cscc21 ; changes: RT-K103N ; read by: syncytia ; result: >310.2 µM
O=c1[nH]cnc2c1ncn2[C@H]1CC[C@@H](CO)O1 ; strain: IIIB ; read by: syncytia ; result: 5 µM
Nc1ccn([C@H]2CC[C@@H](CO)O2)c(=O)n1 ; strain: IIIB-BHAP)(0.1)(RT-L100I ; changes: RT-L100I ; read by: syncytia ; result: 0.05 µM
Fc1cccc(F)c1C1SCc2nc3ccccc3n21 ; strain: TIBO R82150-resistant (RT L100I) ; changes: RT-L100I ; read by: cytopathic effect / MTT ; result: 3.12 µM
Cc1ccnc2c1NC(=O)c1cccnc1N2C1CC1 ; strain: IIIB ; changes: RT-M184I ; read by: p24 ; result: 0.021 µg/mL
O=CN(CCC(=O)O)c1ccc(B(O)O)cc1 ; strain: IIIB ; read by: syncytia ; result: >250 µM
CC(C)=CCN1Cc2cc(Cl)cc3[nH]c(=S)n(c23)C[C@@H]1C ; strain: IIIB ; changes: RT-V106N ; read by: cytopathic effect / XTT ; result: 1.6 µM
N#CCN1C(=O)N(Cc2cccc(F)c2)S(=O)(=O)c2cscc21 ; changes: RT-E138K ; read by: syncytia ; result: 2.9 µM
O=c1[nH]cnc2c1ncn2[C@H]1CC[C@@H](CO)O1 ; strain: IIIB-TIBO(0.1) ; read by: syncytia ; result: 9 µM
Cc1cn([C@@H]2O[C@H](CO[Si](C)(C)C(C)(C)C)C3(OS(=O)(=O)C=C3N)[C@H]2O[Si](C)(C)C(C)(C)C)c(=O)n(C)c1=O ; strain: IIIB ; read by: syncytia ; result: 0.03 µg/mL
O=C(CC[C@H](NC(=O)OCc1ccccc1)C(=O)O)Nc1ccc(B(O)O)cc1 ; strain: IIIB ; read by: syncytia ; result: >50 µM
Cc1ccnc2c1NC(=O)c1cccnc1N2C1CC1 ; strain: IIIB ; changes: RT-E138K ; read by: syncytia ; result: 0.065 ± 0.007 µM
OCc1ccccc1B(O)O ; strain: IIIB ; read by: syncytia ; result: >50 µM
CCn1c(=O)c(C)cn([C@@H]2O[C@H](CO[Si](C)(C)C(C)(C)C)C3(OS(=O)(=O)C=C3N)[C@H]2O[Si](C)(C)C(C)(C)C)c1=O ; strain: IIIB ; read by: syncytia ; result: 0.09 µM
CN1C(=O)N(Cc2ccccc2)S(=O)(=O)c2cscc21 ; strain: IIIB ; changes: RT-Y181C ; read by: syncytia ; result: >324 µM
CCc1cc(NCc2nc3c(Cl)ccc(Cl)c3o2)c(=O)[nH]c1C ; strain: HEPT (RT Y188H) ; changes: RT-Y188H ; read by: syncytia ; result: 4.3 µM
Nc1nc2c(ncn2[C@H]2CC[C@@H](CO)O2)c(=O)[nH]1 ; strain: IIIB TIBO R82913 STR-B02 (RT L100I E138K) ; changes: RT-L100I E138K ; read by: syncytia ; result: 0.7 µM
CC(C)=CCN1Cc2cc(Cl)cc3[nH]c(=S)n(c23)C[C@@H]1C ; strain: Quin-0.1 (RT V106A P225H) ; changes: RT-V106A P225H ; read by: syncytia ; result: 11 µM
Cc1cn([C@H]2C[C@H](N=[N+]=[N-])[C@@H](CO)O2)c(=O)[nH]c1=O ; strain: E-2 (RT-V106A) ; changes: RT-V106A ; read by: cytopathic effect ; result: 0.0053 µM
CC(C)=CCN1Cc2cc(Cl)cc3[nH]c(=S)n(c23)C[C@@H]1C ; strain: IIIB ; read by: p24 ; result: 0.02 µg/mL
Cc1ccnc2c1NC(=O)c1cccnc1N2C1CC1 ; strain: D-3 (RT-V108I M184I) ; changes: RT-V108I M184I ; read by: cytopathic effect ; result: 0.02 µg/mL
Cc1cn([C@@H]2O[C@H](CO[Si](C)(C)C(C)(C)C)C3(OS(=O)(=O)C=C3N)[C@H]2O[Si](C)(C)C(C)(C)C)c(=O)n(C)c1=O ; strain: IIIB TIBO R82913 STR-2 (RT K103N) ; changes: RT-K103N ; read by: syncytia ; result: 0.12 µM
Fc1cccc(F)c1C1SCc2nc3ccccc3n21 ; strain: IIIB ; changes: RT-L100I ; read by: cytopathic effect / MTT ; result: 3.12 µM
COc1ccc(B(O)O)cc1C=O ; strain: IIIB ; read by: syncytia ; result: >10 µM
CCN1C(=O)N(Cc2ccccc2)S(=O)(=O)c2cscc21 ; strain: IIIB ; changes: RT-E138K ; read by: syncytia ; result: >310 µM
Nc1ncnc2c1ncn2CCOCP(=O)(O)O ; strain: IIIB ; read by: syncytia ; result: 11 µM
CC(C)=CCN1Cc2cccc3[nH]c(=S)n(c23)C[C@@H]1C ; strain: IIIB ; read by: syncytia ; result: 0.02 µM
CC(C)=CCOc1cc(NC(=S)c2ccoc2C)ccc1Cl ; strain: IIIB ; changes: RT-V106A ; read by: syncytia ; result: 0.023 ± 0.004 µM
Nc1ncnc2c1ncn2CCOCP(=O)(O)O ; strain: IIIB-BHAP)(0.1)(RT-L100I ; changes: RT-L100I ; read by: syncytia ; result: 19 µM
CCOCn1c(Cc2cc(C)cc(C)c2)c(CC)c(=O)[nH]c1=O ; strain: IIIB TIBO R82913 STR-B02 (RT L100I E138K) ; changes: RT-L100I E138K ; read by: syncytia ; result: 0.1 µM
N#CCN1C(=O)N(Cc2ccccc2)S(=O)(=O)c2cscc21 ; strain: IIIB ; changes: RT-Y188H ; read by: syncytia ; result: ≥60 µM

Repeating the final 8 entries:

SMILES | strain | changes | read by | result
COc1ccc(B(O)O)cc1C=O | IIIB | - | syncytia | >10 µM
CCN1C(=O)N(Cc2ccccc2)S(=O)(=O)c2cscc21 | IIIB | RT-E138K | syncytia | >310 µM
Nc1ncnc2c1ncn2CCOCP(=O)(O)O | IIIB | - | syncytia | 11 µM
CC(C)=CCN1Cc2cccc3[nH]c(=S)n(c23)C[C@@H]1C | IIIB | - | syncytia | 0.02 µM
CC(C)=CCOc1cc(NC(=S)c2ccoc2C)ccc1Cl | IIIB | RT-V106A | syncytia | 0.023 ± 0.004 µM
Nc1ncnc2c1ncn2CCOCP(=O)(O)O | IIIB-BHAP)(0.1)(RT-L100I | RT-L100I | syncytia | 19 µM
CCOCn1c(Cc2cc(C)cc(C)c2)c(CC)c(=O)[nH]c1=O | IIIB TIBO R82913 STR-B02 (RT L100I E138K) | RT-L100I E138K | syncytia | 0.1 µM
N#CCN1C(=O)N(Cc2ccccc2)S(=O)(=O)c2cscc21 | IIIB | RT-Y188H | syncytia | ≥60 µM

An empty or dashed field is not shown. ECn: concentration that inhibits the pathogen or its effect by n%.